{"source": "paper PMC7414093", "about": "(Proceedings of the National Academy of Sciences of the …, 2020)", "test": "general procedure: Fmoc solid-phase peptide synthesis; 2-chlorotrityl chloride resin; HBTU, HOBt, DIPEA (lactam cyclization)", "details": "conjugation step", "data": [{"substance": "P7-TAMRA probe", "values": [{"measurement": "conjugation yield", "result": 95, "unit": "% yield"}]}]}
